Anti-infective test results gathered from many reports (values: NIAID ChemDB through PubChem).

All rows: whole-cell or culture tests; species: HIV-1; cell line: MT-4; measure: EC50

Two numbers with a dash give a range or band. Lines come from different laboratories, so protocols vary. An empty or dashed field is not shown. ECn is the concentration giving n% inhibition of infection, replication or growth.

compound	strain	mutations	read by	conditions	result
CC1(C)Oc2ccc3ccc(=O)oc3c2[C@@H](OC(=O)C23CCC(C)(C(=O)O2)C3(C)C)[C@H]1OC(=O)C12CCC(C)(C(=O)O1)C2(C)C	NL4-3	RT-E138K	p24	-	10 µM
Cc1cn([C@@H]2O[C@H](CO)[C@]3(N=[N+]=[N-])CO[C@H]23)c(=O)[nH]c1=O	IIIB	-	cytopathic effect / MTT	-	>300 µM
C[C@@]12CCCCC[C@]1(O)Cn1cc(C(=O)NCc3ccc(F)cc3F)c(=O)c(O)c1C2=O	NL4-3	-	GFP	0% human serum	0.0019 µM
[N-]=[N+]=N[C@H]1C[C@H](n2cc(Br)c(=O)[nH]c2=O)O[C@@H]1CO	-	-	cytopathic effect	-	0.5 µM
Cc1[nH]c(=S)n(Nc2cccc(Cl)c2)c1C	IIIB	-	cytopathic effect / MTT	-	>259 µM
Cc1cc2[nH]cnc2c(C)c1OCC(=O)N[C@@H](Cc1ccccc1)[C@H](O)CN(CC(C)C)S(=O)(=O)c1ccc2nc(N)oc2c1	LAI WT	-	cytopathic effect / MTT	-	0.0013 µM
CC(C)CN(C[C@@H](O)[C@H](Cc1ccccc1)NC(=O)O[C@H]1CO[C@H]2OCC[C@H]21)S(=O)(=O)c1ccc2c(c1)OCO2	NL4-3 (NFV5)	L10F/K20T/D30N/K45I/A71B/V77I	p24	-	0.0024 µM
CCc1c(Cc2cc(C)cc(C)c2)n(COCC#Cc2ccc([N+](=O)[O-])cc2)c(=O)[nH]c1=O	IIIB	WT	MTT	-	0.03 µM
CC1(C)C(N)=CS(=O)(=O)N1Cc1ccccc1	IIIB	-	cytopathic effect / MTT	-	>125 µg/mL
Cc1ccc(N2C(=O)CS/C2=N\c2nc3ccccc3s2)cc1	IIIB	-	MTT	-	>100 µM
COC(=O)[C@H](C)NC(=O)C[C@H](O)[C@@H](NC(=O)Oc1ccccc1)C(F)(F)F	IIIB	-	RT activity	-	>100 µg/mL
CC1=C(N)C(C)(Cc2ccccc2)OS1(=O)=O	IIIB	-	cytopathic effect / MTT	-	>125 µg/mL
COc1ccc(NC(=S)Nc2nc3ccccc3s2)cc1	IIIB	-	MTT	-	>68 µM
Cc1nc2ccccc2c(-c2cc(F)c3c(c2C)CCCO3)c1[C@H](OC(C)(C)C)C(=O)O	NL4-3	V201I	luminescence	-	0.032 µM
COC(=O)C[C@H](O)[C@@H](N)C(F)(F)F	IIIB	-	RT activity	-	>100 µg/mL
O=C1c2ccccc2N(Cc2ccc(Cl)cc2)S(=O)(=O)N1Cc1ccccc1	IIIB	-	cytopathic effect	-	>50 µM
COC(=O)C[C@H](O)[C@@H](NC(=O)Oc1ccccc1)C(F)(F)F	IIIB	-	RT activity	-	>100 µg/mL
Nc1ccn([C@@H]2O[C@H](CO)C[C@@H]2F)c(=O)n1	IIIB	-	-	-	9.8 µM
CC(C)CN(C[C@@H](O)[C@H](Cc1ccccc1)NC(=O)OCc1cncs1)S(=O)(=O)c1ccc2nc(N)oc2c1	LAI WT	-	cytopathic effect / MTT	-	0.0066 µM
Nc1nc2c(ncn2[C@H]2C=C[C@@H](CO)C2)c(=O)[nH]1	-	-	cytopathic effect	-	0.31 µg/mL
Cc1c(C(=O)N[C@@H](Cc2ccccc2)[C@H](O)CN(CC(C)C)S(=O)(=O)c2ccc3nc(N)oc3c2)ccc2c1OCO2	LAI WT	-	cytopathic effect / MTT	-	0.0107 µM
CCCCn1c(=O)c(C)cn([C@H]2C[C@H](N=[N+]=[N-])[C@@H](CO)O2)c1=O	IIIB	-	MTT	-	6.2 µM
C[C@H](NC(=O)C[C@H](O)[C@@H](NC(=O)Oc1ccccc1)C(F)(F)F)C(=O)O	IIIB	-	RT activity	-	>100 µg/mL
Cc1cn([C@H]2C[C@H](N=[N+]=[N-])[C@@H](CO)O2)c(=O)n(C(C)C)c1=O	IIIB	-	MTT	-	6.7 µM
O=c1ccn([C@@H]2O[C@H](CO)[C@@H](F)[C@H]2F)c(=O)[nH]1	IIIB	-	-	-	>500 µM
CC(C)CN(C[C@@H](O)[C@H](Cc1ccccc1)NC(=O)OC1COC2OCCNC12)S(=O)(=O)c1ccc2nc(N)oc2c1	LAI WT	-	cytopathic effect / MTT	-	0.5623 µM
CC(C)[C@H](NC(=O)OCc1ccccc1)C(=O)N[C@@H](Cc1ccccc1)[C@@H](O)[C@@H](NCc1ccccc1)C(=O)N[C@H](C(=O)NCc1nc2ccccc2[nH]1)C(C)C	RF	-	p24	-	0.14 µM
O=C1c2ccccc2N(Cc2ccc(Cl)c(Cl)c2)S(=O)(=O)N1Cc1ccccc1	IIIB	-	cytopathic effect	-	2.4–7.6 µM
CC1(C)CC=C(c2cn(-c3nccc(C(=O)NC4CCC(N5CC6CCC(C5)O6)CC4)n3)c3ccc(F)c([C@H](OC(C)(C)C)C(=O)O)c23)CC1	NL4-3	T124A	luminescence	-	0.0026 µM
CCc1c(Cc2cc(C)cc(C)c2)n(COCC#Cc2ccc(NC(=O)C(F)(F)F)cc2)c(=O)[nH]c1=O	IIIB	Y181C	MTT	-	1.5 µM
COCC[C@@]1(C)C(=O)c2c(O)c(=O)c(C(=O)NCc3ccc(F)cc3F)cn2C[C@@H]1OC	NL4-3	-	GFP	0% human serum	0.0026 µM
CC1(C)OS(=O)(=O)C=C1NCCc1ccccc1	IIIB	-	cytopathic effect / MTT	-	>125 µg/mL
Cc1cc(C)cc(Nn2c(-c3ccccc3)c(C)[nH]c2=S)c1	SO561945 (RT K103N Y181C)	RT-K103N Y181C	cytopathic effect / MTT	-	>194 µM
CC[C@H](C)[C@H](NC(=O)C[C@H](O)[C@H](CC(C)C)NC(=O)[C@H](CC(N)=O)NC(=O)OCc1ccccc1)C(N)=O	IIIB	-	ELISA / antigen	-	>1000 µM
C[C@@]12CCCCC[C@]1(O)Cn1cc(C(=O)NCc3cccc(Cl)c3F)c(=O)c(O)c1C2=O	NL4-3	-	GFP	0% human serum	0.0005 µM
Cc1[nH]c(=S)n(Nc2ccccc2)c1C	NL4-3	-	cytopathic effect / MTT	-	>181 µM
O=C1c2ccccc2N(COCc2ccccc2)S(=O)(=O)N1COCc1ccccc1	IIIB	-	cytopathic effect	-	>8 µM
COc1ccc(-c2nnc(SSc3nnc(-c4ccc(OC)cc4)n3N)n2N)cc1	IIIB	-	-	-	>100 µM
Cc1ncn(Nc2ccc(F)cc2)c1-c1ccccc1	NL4-3	-	cytopathic effect / MTT	-	>30.82 µM
Cc1cn([C@H]2C[C@H](N=[N+]=[N-])[C@@H](CO)O2)c(=O)n(CC2CO2)c1=O	IIIB	-	MTT	-	>359 µM
CC(C)CN(C[C@@H](O)[C@H](Cc1ccccc1)NC(=O)O[C@H]1CO[C@H]2OCC[C@H]21)S(=O)(=O)c1ccc(C(=O)O)cc1	LAI	-	p24 / luminescence	-	1000 µM
CC(NC(=S)Nc1nc2ccccc2s1)c1ccccc1	IIIB	N119	MTT	-	8.2 µM
CCc1c(Cc2cc(C)cc(C)c2)n(COCc2cn(Cc3c(F)cccc3F)nn2)c(=O)[nH]c1=O	IIIB	Y181C	MTT	-	3.2 µM
Cc1cn([C@H]2C[C@H](N=[N+]=[N-])[C@@H](CO)O2)c(=O)[nH]c1=O	IIIB	AZT-resistant	MTT	-	0.35 µM
Cc1ccc(-c2n[nH]c(=S)n2N)cc1	IIIB	-	-	-	>100 µM
Cc1cn([C@H]2C[C@H](N=[N+]=[N-])[C@@H](CO)O2)c(=O)nc1N	-	-	cytopathic effect	-	1.8 µM
O=c1cc(Cc2ccc3ccccc3c2)nc(SC2CCCC2)[nH]1	MC639(RT-V179D)	RT-V179D	cytopathic effect / MTT	-	20 µM
Clc1ccc(-c2nnc3ssc4nnc(-c5ccc(Cl)cc5)n4n23)cc1	NNRTI-resistant N119	RT-Y181C	-	-	>100 µM
N#Cc1ccc(N2C(=O)CS/C2=N\c2nc3ccccc3s2)cc1	IIIB	-	MTT	-	>100 µM
CCCn1c(=O)c(C)cn([C@H]2C[C@H](N=[N+]=[N-])[C@@H](CO)O2)c1=O	IIIB	-	MTT	-	>345 µM
CC[C@H](C)[C@H](NC(=O)C[C@H](O)[C@H](CC(C)C)NC(=O)[C@H](C)NC(=O)[C@H](C)NC(C)=O)C(N)=O	IIIB	-	ELISA / antigen	-	>1000 µM
[N-]=[N+]=N[C@H]1[C@@H](F)[C@H](n2ccc(=O)[nH]c2=O)O[C@@H]1CO	IIIB	-	-	-	8.4 µM
CC(C)[C@H](NC(=O)OCc1ccccc1)C(=O)N[C@@H](Cc1ccccc1)[C@@H](O)[C@@H](NCc1ccccc1)C(=O)N[C@H](C(=O)NCc1ccccc1)C(C)C	RF	-	p24	-	1.005 µM
CCc1cn([C@H]2C[C@H](F)[C@@H](CO)O2)c(=O)[nH]c1=O	-	-	cytopathic effect	-	330 µM
CC(=O)c1ccc(C)cc1NC(C(N)=O)c1c(Cl)cccc1Cl	HE	-	cytopathic effect / MTT	-	0.03 µM
COc1cccc(Nn2cnc(C)c2-c2ccccc2)c1	IIIB	-	cytopathic effect / MTT	-	>34.44 µM
Cc1cn([C@H]2C[C@H](N=[N+]=[N-])[C@@H](CO)O2)c(=O)n(C)c1=O	IIIB	-	MTT	-	6.6 µM
CNc1nc2ccc(S(=O)(=O)N(CC(C)C)C[C@@H](O)[C@H](Cc3ccccc3)NC(=O)COc3c(C)cccc3C)cc2o1	LAI WT	-	cytopathic effect / MTT	-	0.0468 µM
C[C@]12CCCCC[C@@]1(O)Cn1cc(C(=O)NCc3cccc(Cl)c3F)c(=O)c(O)c1C2=O	NL4-3	-	GFP	100% human serum	0.046 µM
Nn1c(-c2ccc(Cl)cc2)n[nH]c1=S	IIIB	-	-	-	>100 µM
CC(C)[C@H](NC(=O)OCc1ccccc1)C(=O)N[C@@H](Cc1ccccc1)[C@@H](O)[C@@H](NCc1ccc(Br)cc1)C(=O)N[C@H](C(=O)NCc1nc2ccccc2[nH]1)C(C)C	RF	-	p24	-	0.14 µM
Nc1ncnc2c1ncn2[C@@H]1OC[C@H](OCCP(=O)(O)O)[C@H]1O	-	-	-	-	>250 µM
Cc1[nH]c(=S)n(Nc2cccc(Br)c2)c1-c1ccccc1	IIIB	-	cytopathic effect / MTT	-	9.96 µM
Cc1cn([C@H]2C[C@H](N=[N+]=[N-])[C@@H](CO)O2)c(=O)[nH]c1=O	IIIB	-	MTT	-	0.02 µM
CC(C)=CCN1Cc2cc(Cl)cc3[nH]c(=O)n(c23)C[C@@H]1C	IIIB	RT-Y181C	cytopathic effect / XTT	-	124 µM
O=S(=O)(O)c1cc(O)c2c(NS(=O)(=O)c3ccc(-c4ccc(S(=O)(=O)Nc5cc(S(=O)(=O)O)cc6cc(S(=O)(=O)O)cc(O)c56)cc4)cc3)cc(S(=O)(=O)O)cc2c1	IIIB	-	cytopathic effect	-	8.1 µg/mL
O=S1(=O)N=C(OCc2ccccc2)c2ccccc2N1Cc1ccccc1	IIIB	-	cytopathic effect	-	15 µM
CC[C@H](C)[C@H](NC(=O)C[C@H](O)[C@H](CC(C)C)NC(=O)[C@H](C)NC(=O)[C@H](CCC(=O)O)NC(C)=O)C(N)=O	IIIB	-	ELISA / antigen	-	1000 µM
CC(=O)c1ccc(C)cc1N[C@H](C(N)=O)c1c(Cl)cccc1Cl	IIIB	-	cytopathic effect / MTT	-	0.005 µM
CCc1c(Cc2cc(C)cc(C)c2)n(COCC#Cc2ccc(C=O)cc2)c(=O)[nH]c1=O	IIIB	WT	MTT	-	0.01 µM
COC(=O)c1[nH]c(=S)n(Nc2cccc(Cl)c2)c1C	NL4-3	-	cytopathic effect / MTT	-	>48.8 µM

For reference, 11 entries again:

{"compound": "Nc1nc2c(ncn2[C@H]2C=C[C@@H](CO)C2)c(=O)[nH]1", "read by": "cytopathic effect", "result": "0.31 µg/mL"}
{"compound": "[N-]=[N+]=N[C@H]1[C@@H](F)[C@H](n2ccc(=O)[nH]c2=O)O[C@@H]1CO", "strain": "IIIB", "result": "8.4 µM"}
{"compound": "O=c1ccn([C@@H]2O[C@H](CO)[C@@H](F)[C@H]2F)c(=O)[nH]1", "strain": "IIIB", "result": ">500 µM"}
{"compound": "O=C1c2ccccc2N(Cc2ccc(Cl)cc2)S(=O)(=O)N1Cc1ccccc1", "strain": "IIIB", "read by": "cytopathic effect", "result": ">50 µM"}
{"compound": "Cc1cn([C@H]2C[C@H](N=[N+]=[N-])[C@@H](CO)O2)c(=O)[nH]c1=O", "strain": "IIIB", "read by": "MTT", "result": "0.02 µM"}
{"compound": "O=C1c2ccccc2N(COCc2ccccc2)S(=O)(=O)N1COCc1ccccc1", "strain": "IIIB", "read by": "cytopathic effect", "result": ">8 µM"}
{"compound": "Cc1cn([C@H]2C[C@H](N=[N+]=[N-])[C@@H](CO)O2)c(=O)n(C(C)C)c1=O", "strain": "IIIB", "read by": "MTT", "result": "6.7 µM"}
{"compound": "Cc1c(C(=O)N[C@@H](Cc2ccccc2)[C@H](O)CN(CC(C)C)S(=O)(=O)c2ccc3nc(N)oc3c2)ccc2c1OCO2", "strain": "LAI WT", "read by": "cytopathic effect / MTT", "result": "0.0107 µM"}
{"compound": "CC(C)[C@H](NC(=O)OCc1ccccc1)C(=O)N[C@@H](Cc1ccccc1)[C@@H](O)[C@@H](NCc1ccccc1)C(=O)N[C@H](C(=O)NCc1ccccc1)C(C)C", "strain": "RF", "read by": "p24", "result": "1.005 µM"}
{"compound": "Cc1cn([C@H]2C[C@H](N=[N+]=[N-])[C@@H](CO)O2)c(=O)[nH]c1=O", "strain": "IIIB", "mutations": "AZT-resistant", "read by": "MTT", "result": "0.35 µM"}
{"compound": "Nn1c(-c2ccc(Cl)cc2)n[nH]c1=S", "strain": "IIIB", "result": ">100 µM"}